PubChem BioAssay AID624099 – ICCB-Longwood – 2012
In all, the deposit lists about 21,000 reagents; shown is a random part of them. Of all reagents, 497 (2.4%) got an active call. 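Higher z means weaker E2 silencing; only reporter increases were scored, and knock-downs that hurt cell survival may mask genuine repressor factors.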 Unmarked entries are inactive. Reagent sequences are not shown.

- Screen: 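Knock-downs relieving repression by E2 of an HPV18 LCR luciferase reporter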 (primary screen)
- System: human C33A cervical carcinoma cells (HPV-negative) stably expressing BPV1 E2 and an HPV18 LCR luciferase reporter
- Reagent: siRNA pool against human genes, 40 nM
- Time to read-out: 72 h
- Measurement: 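Per-well luciferase luminescence, z-scored on each plate against the plate mean and SD with control wells left out, then averaged across three replicate plates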
- Reading the numbers: mean z-score and z-score: higher = stronger reporter signal, weaker E2 silencing
- Active means: 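Hit if mean z-score reaches 2 and two or more of three replicate z-scores also reach 2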

no.	gene knocked down	mean z-score	z-score, replicate A	z-score, replicate B	z-score, replicate C
1	LOC728743	-0.13	-0.09	-0.28	-0.03
2	LOC389228 (retired record)	0.47	-0.07	0.82	0.65
3	PRDM4	1.43	1.39	1.17	1.72
4	LOC388617 (retired record)	0.36	0.51	0.24	0.34
5	SMAD9	-0.8	-0.84	-0.79	-0.79
6	PSD4	-0.04	-0.01	-0.13	0
7	LRRC19	0.48	0.59	0.28	0.55
8	LINC01128	-0.42	-0.23	-0.55	-0.47
9	HJV	-1.94	-2.18	-1.83	-1.81
10	ARL8A	-1.06	-0.88	-1.22	-1.08
11	C1QTNF9	0.18	0.3	-0.13	0.36
12	TGM1	-0.48	-0.54	-0.36	-0.53
13	LINC00342	3.07 (active)	4.01	2.47	2.72
14	LYPD5	-0.52	-0.72	-0.33	-0.52
15	LOC400647 (retired record)	0.79	0.95	0.96	0.47
16	C22orf39	0.2	0.43	0.02	0.16
17	CDC16	-0.83	-0.76	-0.69	-1.05
18	IFNA8	-0.82	-0.83	-0.83	-0.8
19	TMEM219	-0.23	-0.17	-0.21	-0.3
20	BCLAF3	-0.06	-0.19	-0.06	0.09

Continued; the last 6 above are carried over.
no.	gene knocked down	mean z-score	z-score, replicate A	z-score, replicate B	z-score, replicate C
15	LOC400647 (retired record)	0.79	0.95	0.96	0.47
16	C22orf39	0.2	0.43	0.02	0.16
17	CDC16	-0.83	-0.76	-0.69	-1.05
18	IFNA8	-0.82	-0.83	-0.83	-0.8
19	TMEM219	-0.23	-0.17	-0.21	-0.3
20	BCLAF3	-0.06	-0.19	-0.06	0.09
21	IFNA10	0.07	0.24	-0.13	0.09
22	AP3S1	0.19	-0.13	0.24	0.47
23	CD209	1.78	1.67	1.8	1.88
24	CES1	-0.53	-0.46	-0.54	-0.58
25	SH3GL2	-0.07	-0.12	-0.03	-0.07
26	SKA3	-1.1	-1.13	-1.08	-1.08
27	LOC151261 (retired record)	0.58	0.33	0.39	1.02
28	METAP2	0.19	0.25	0.43	-0.11
29	SPNS2	0.77	0.66	0.85	0.8
30	ABITRAM	-0.07	-0.14	-0.01	-0.05
31	DHX34	1.68	1.45	1.81	1.79
32	SLC2A3	1.38	1.45	1.48	1.21
33	UBA52	-4.16	-4.1	-4.19	-4.2
34	ZDHHC4	-0.86	-1.5	-0.81	-0.29
35	TLE2	0.68	0.37	0.91	0.77
36	GNPTAB	0.32	-0.12	0.32	0.76
37	MYO1G	-0.19	-0.44	-0.57	0.43
38	CADM3	0.53	0.69	0.94	-0.05
39	CREG1	0.57	0.88	0.53	0.3
40	RBM26	-0.9	-1	-1.09	-0.6
41	DCLRE1C	-0.28	-0.35	-0.28	-0.21
42	CDH24	-0.63	-0.81	-0.48	-0.59
43	SLC17A7	0.38	0.33	0.44	0.36
44	DHX8	0.03	-0.04	-0.12	0.25
45	NUTF2	0.32	0.5	0.34	0.1
46	ZBTB7C	-1.32	-1.29	-1.45	-1.23
47	MPEG1	0.18	0.09	0.31	0.14
48	SNX13	-0.41	-0.55	-0.02	-0.66
49	CIMAP2	0.65	0.83	0.83	0.29
50	LAMTOR3	-0.7	-0.83	-0.45	-0.84
51	ARPC1A	-1.32	-1.41	-1.27	-1.28
52	SPSB1	0.68	1.08	0.45	0.51
53	SPIN1	0.93	0.61	1.15	1.04
54	TPPP2	1.53	1.74	1.45	1.4
55	PMVK	3.13 (active)	3.41	3.02	2.97
56	MSI2	0.81	0.46	0.77	1.21
57	CNPY2	2.09 (active)	1.92	2.25	2.1
